Results of unrelated studies side by side (data: NIAID ChemDB).

All rows: whole-cell or culture tests; organism: Varicella zoster virus; measure: EC50

Blank or dashed fields: not listed here. Conditions beyond the fields shown may differ between rows. ECn: concentration that inhibits the pathogen or its effect by n%.

structure,read by,cells,strain or isolate,value
Cc1ccn2c(C(SCCc3ccccc3)SCCc3ccccc3)cnc2c1,-,HEL,YS/R,>1000 µM
CC(NC(=S)Nc1ccc(NC(=O)c2ccccc2F)cc1)c1ccc(F)cc1,ELISA,HFF,ELLEN,0.26 µg/mL
O=c1[nH]c(=O)n([C@H]2C[C@H](O)[C@@H](CO)O2)cc1/C=C/Br,cytopathic effect / ELISA,HEL,9/84,0.7 µM
O=C(O)P(=O)(O)O,cytopathic effect,HEL,Clinical isolate VZV-30,93.8 µM
O=c1[nH]cnc2c1ncn2C1C[C@H](CO)[C@@H](CO)C1,-,HEL,OKA,>100 µg/mL
Cn1cc(C(=O)NCc2ccc(Cl)cc2)c(=O)c2cc(CN3CCOCC3)ccc21,plaque count,HFF,Varicella isolate RN,0.2 µM
OC[C@H]1O[C@@H](c2cc(I)c(F)cc2F)C[C@@H]1O,plaque count,HEL,(TK-)/YS/R,>200 µM
Nc1ncnc2c1ncn2[C@@H]1C[C@H](CO)[C@@H](O)[C@@H]1O,cytopathic effect / ELISA,HEL,9/84-C,37 µM
Nc1nc(N)c2ncn(CCOCP(=O)(O)O)c2n1,cytopathic effect,HEL,Oka CF1603-resistant,2.3 µM
Cc1ccn2c(C3OCCO3)cnc2c1,-,HEL,YS/R,>1000 µM
Nc1ccn([C@@H]2O[C@H](CO)[C@@H](O)[C@@H]2O)c(=O)n1,plaque count,HEL,OKA-H12,0.13 µg/mL
COc1cc(F)c([C@H]2C[C@H](O)[C@@H](CO)O2)cc1[N+](=O)[O-],plaque count,HEL,(TK+)/OKA,>200 µM
O=C(NCc1ccc(Cl)cc1)c1c[nH]c2c(F)cccc2c1=O,plaque count,-,KLE,0.7 µM
CCCCCCCCc1cc2cn([C@H]3C[C@H](O)[C@@H](CO)O3)c(=O)nc2o1,-,-,YS,0.024 µM
Cc1cccn2c(C3SCCS3)cnc12,-,HEL,OKA,>1000 µM
O=c1[nH]c(=O)n([C@@H]2O[C@H](CO)[C@@H](O)[C@@H]2O)cc1/C=C/Br,plaque count,HEL,YS,0.0005 µg/mL
OC[C@H]1O[C@@H](c2cc(Br)c(F)cc2F)C[C@@H]1O,plaque count,HEL,TK+/YS,>200 µM
Nc1nc2c(ncn2C[C@@H](CO)CCO)c(=O)[nH]1,cytopathic effect / ELISA,HEL,9/84 + PER + ULF + BIR + Y,0.9 µM
O=c1[nH]c(=O)n(C2C[C@H](CO)[C@@H](CO)C2)cc1I,-,HEL,07/1 (TK-),>100 µg/mL
O=c1[nH]c(=O)n([C@@H]2O[C@H](CO)[C@@H](O)[C@@H]2O)cc1/C=C/Br,cytopathic effect,HEL,Oka PFA-resistant/A,0.00037 µM
Cc1cc([C@H]2C[C@H](O)[C@@H](CO)O2)c(F)cc1Cl,plaque count,HEL,TK+/YS,>200 µM
Nc1nc2c(ncn2CCC(O)CO)c(=O)[nH]1,cytopathic effect / ELISA,HEL,9/84,87 µM
OC[C@H]1O[C@H](c2cc(F)c(F)cc2F)C[C@@H]1O,plaque count,HEL,(TK+)/OKA,>200 µM
CCOC(=O)/C=C/C=C/[C@H]1O[C@@H](n2ccc(=O)[nH]c2=O)[C@H](O)[C@@H]1O,-,HEL,07/1,>120 µM
O=c1ccn([C@@H]2C[C@H](CO)C[C@H]2CO)c(=O)[nH]1,-,HEL,07/1 (TK-),>100 µg/mL
Nc1nc2c(ncn2COC(CO)CO)c(=O)[nH]1,cytopathic effect / ELISA,HEL,9/84,41 µM
Nc1nc2c(ncn2CCC(CO)CO)c(=O)[nH]1,cytopathic effect,HEL,Clinical isolate VZV-27,4.03 µM
Nc1nc2c(ncn2C[C@H](CO)CCO)c(=O)[nH]1,cytopathic effect / ELISA,HEL,9/84-A,>100 µM
Cc1ccn2c(C3OCCS3)cnc2c1,-,HEL,YS,>1000 µM

2 of the rows above, restated:

structure,read by,cells,strain or isolate,value
O=c1[nH]c(=O)n([C@@H]2O[C@H](CO)[C@@H](O)[C@@H]2O)cc1/C=C/Br,plaque count,HEL,YS,0.0005 µg/mL
CC(NC(=S)Nc1ccc(NC(=O)c2ccccc2F)cc1)c1ccc(F)cc1,ELISA,HFF,ELLEN,0.26 µg/mL